Measured values reported in PMC9768162, “Synthesis of macrocyclic nucleoside antibacterials and their interactions with MraY” (Nature Communications, 2022).

Biological target: T1, MraYSA (S. aureus MraY enzyme) (Staphylococcus aureus, UniProt Q2FZ93)
T1 sequence (Q2FZ93 1-321): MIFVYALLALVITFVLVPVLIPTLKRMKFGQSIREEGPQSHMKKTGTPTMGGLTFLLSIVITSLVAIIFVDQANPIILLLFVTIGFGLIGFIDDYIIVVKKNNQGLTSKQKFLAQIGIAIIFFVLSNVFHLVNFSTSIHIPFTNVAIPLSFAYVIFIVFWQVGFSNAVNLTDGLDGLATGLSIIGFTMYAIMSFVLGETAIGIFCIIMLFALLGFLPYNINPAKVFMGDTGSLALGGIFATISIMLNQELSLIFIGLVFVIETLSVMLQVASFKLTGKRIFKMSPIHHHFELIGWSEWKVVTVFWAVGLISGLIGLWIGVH
Test: Fluorescence-based MraY inhibitory assay (dansylated Park's nucleotide)
Settings: ratio of IC50 values, SPM-1 vs SPM-2

With `CCCCCCCCCCCCCCCC(=O)O[C@@H]1[C@@H]2CN(C[C@@H]1O)[C@H](C(=O)O)[C@@H]([C@H]1O[C@@H](n3ccc(=O)[nH]c3=O)[C@H](O)[C@@H]1O)O[C@@H]1O[C@H](CN2)[C@@H](O)[C@H]1O` [SPM-1] the “fold more potent than SPM-2 against MraYSA” value was 36 fold.
